In the supplement of paper PMC11865577:

How the values were obtained:
Test in all cases: pull-down binding Z-score (relative to library population); higher = stronger binding
Conditions in all cases: RNA library: Library-2
[1] = system: TO-3-N3 (biotin conjugate)
Method in brief: (§1)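 Streptavidin beads with 100 pmol of biotin-conjugated small molecule were incubated for 60 min at 25 °C with 1 μg of heat-folded Cy5- or Cy3-end-labelled RNA library in phosphate/NaCl/KCl buffer. Bound RNA was eluted in hot SDS after three washes and hybridised to a DNA barcode microarray at 55.5 °C for 20 h. Each binding score is a library-referenced Z-score, computed after beads-only subtraction and a trimmed mean of barcoded replicate probes.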

[2] = system: TO-3-N3-2 (biotin conjugate)
Method in brief: as §1

[3] = system: TO-N3 (biotin conjugate)
Method in brief: as §1

[4] = system: TO-N3-2 (biotin conjugate)
Method in brief: as §1

| Sequence | pull-down binding Z-score [1] | pull-down binding Z-score [2] | pull-down binding Z-score [3] | pull-down binding Z-score [4] |
| --- | --- | --- | --- | --- |
| UUUCAAAGAUCAAGUCAUUUUGCUGAAUAAGCAUAUUGACGCAUACAAAACAUUCCCACCAACAGAGCCUAAAAAGGACAAAAAGAAG | -0.934 | -0.0803 | -0.736 | -0.0823 |
| UUUCUUAGAGACGGUUGGGAAAUUGUUAAAUUUAUCUCAACCUGUGCUUGUGAAA [DMSMaPseq_invitro_SARS-CoV-2_Motif_42] | -0.873 | -0.33 | -0.931 | -0.654 |
| UUUGAUAAAUUCAAA | -0.393 | -0.743 | -1.02 | -1.18 |
| UUUUGAUGGUAAAUCAAAA | -0.409 | -0.628 | -0.864 | -1.43 |
